# Data as given in patent US20240166598A1, “COMPOUNDS, COMPOSITIONS, AND METHODS OF USING THE SAME” (priority 2021, published 2024).
# Legend:
# SARS CoV-2 PLpro [1] = molecular target: T1, SARS CoV-2 PLpro (Severe acute respiratory syndrome coronavirus 2 (2019-nCoV) (SARS-CoV-2), UniProt P0DTD1); details: read-out: FRET Enzymatic assay IC50
# SARS CoV-2 PLpro [2] = molecular target: T1, SARS CoV-2 PLpro; details: read-out: FlipGFP-PLpro assay EC50
# [3] = tested on: SARS-CoV-2, Isolate USA-WA1/2020; experiment: microbe, parasite or virus in culture; details: Severe acute respiratory syndrome coronavirus 2, Vero C1008, read-out: EC50 against infectious SARS-CoV-2 (plaque formation)
Compound,IC50 (SARS CoV-2 PLpro [1]) [µM],EC50 (SARS CoV-2 PLpro [2]) [µM],EC50 [3] [µM]
"5-(azetidin-3-yloxy)-N- ((R)-1-(3-(5-((((1S,3R)-3- hydroxycyclopentyl)amino) methyl)furan-2- yl)phenyl)ethyl)-2- methylbenzamide [Example 174]",0.6,> 60,
Cc1ccc(NC2CNC2)cc1C(=O)N[C@H](C)c1cccc(-c2ccc(CNC3CCCC3)s2)c1 [XR8-23],,,2.8 ± 0.4
(R)-5-(azetidin-3-yloxy)- N-(1-(3-(5- ((cyclopentylamino)methyl) thiazol-2- yl)phenyl)ethyl)-2- methylbenzamide [Example 176],0.8,> 60,
